A mixed list of measured activities; the numbers were collected in NIAID ChemDB.

All rows: whole-cell or culture tests; organism: Candida albicans; read-out: MIC

Conditions beyond the fields shown may differ between rows.

structure,strain or isolate,result
Cc1c(Cl)[n+](=O)c2cc(Cl)ccc2n1[O-],Clinical isolate 2,15.6 µg/mL
Cc1ccc(C(Cn2ccnc2)OCc2cccc3ccccc23)cc1,CA12,>128 µg/mL
c1ccc(CO/N=C(/Cn2ccnc2)c2ccccc2)cc1,5M,>128 µg/mL
Cc1c(Sc2ccccc2)[n+](=O)c2cc(Cl)ccc2n1[O-],Clinical isolate 18,31.25 µg/mL
OC(Cn1cncn1)(Cn1cncn1)c1ccc(F)cc1F,60 strains,2.5 µg/mL
Nc1ncnc2c1ncn2[C@@H]1O[C@H](C(=O)O)[C@@H](NC(=O)C(N)Cc2ccncc2)[C@H]1O,FP633,12.5 µg/mL
O=C(c1ccc(Cl)cc1)c1oc2ccc(Cl)cc2c1Cn1ccnc1,Clinical isolate,25 µg/mL
CCOc1cc2c(cc1F)n([O-])c(C)c(Cl)[n+]2=O,Clinical isolate 6,15.6 µg/mL
Clc1ccc(/C(Cn2ccnc2)=N\OCc2ccccc2)cc1,CA12,128 µg/mL
CC(C)(C)c1ccc(COC(Cn2ccnc2)c2ccccc2)cc1,CA2,128 µg/mL
C[C@@H](N1CNc2cc(Cl)ccc2C1=O)[C@](O)(Cn1cncn1)c1ccc(F)cc1F,406 strains,≤0.03 µg/mL
CCCCCCCCCCCCCCCCCC(=O)NC1CC(O)C(O)NC(=O)C2C(O)C(C)CN2C(=O)C(C(C)O)NC(=O)C(C(O)C(O)c2ccc(O)cc2)NC(=O)C2CC(O)CN2C(=O)C(C(C)O)NC1=O,MY1208,1 µg/mL
C[C@H]1[C@H](O)[C@@H](C)/C=C/C=C/C=C/C=C/C=C/C=C/C=C/[C@H](O[C@@H]2O[C@H](C)[C@@H](O)[C@H](N)[C@@H]2O)C[C@@H]2O[C@](O)(C[C@@H](O)C[C@@H](O)CC[C@H](O)[C@@H](O)C[C@@H](O)CC(=O)O[C@H]1C)C[C@H](O)[C@H]2C(=O)O,SC14059 (azole-resistant),0.25 µg/mL
C[C@@H](SC1COC(/C=C/C=C/c2ccc(C#N)cc2F)OC1)[C@](O)(Cn1cncn1)c1ccc(F)cc1F,CAL-0012,0.06 µg/mL
CCCC(O)C/C=C\C=C\C(=O)OC[C@H]1O[C@@H](O[C@@H]2[C@H](OC(=O)/C=C/C=C/CC(O)/C(C)=C/C=C/CCC(C)CC)[C@@H](O)[C@]3(OCc4cc(O)cc(O)c43)O[C@@H]2CO)[C@H](O)[C@@H](O)[C@H]1O,MY1750,1 µg/mL
O/N=C(\c1ccc(Cl)cc1)c1oc2ccccc2c1Cn1cncn1,NRRL Y-27077,25 µg/mL
Clc1ccc(/C(Cn2ccnc2)=N/OCc2ccccc2)cc1,5M,64 µg/mL
Clc1ccc(C(Cn2ccnc2)OC/C=C/c2ccccc2)c(Cl)c1,3M,4 µg/mL
CCOc1cc2c(cc1F)n([O-])c(C)c(S(=O)(=O)c1ccccc1)[n+]2=O,Clinical isolate 8,15.6 µg/mL
CC(C)(C)c1ccc(COC(Cn2ccnc2)c2ccc(Cl)cc2Cl)cc1,3M,128 µg/mL
C[C@@H](NC(=O)c1ccc(Cl)cc1N)[C@](O)(Cn1cncn1)c1ccc(F)cc1F,76 strains,>80 µg/mL
Clc1ccc(/C(Cn2ccnc2)=N/OCc2ccccc2)c(Cl)c1,CA12,>128 µg/mL
Nc1ncnc2c1ncn2[C@@H]1O[C@H](C(=O)O)[C@@H](NC(=O)CC(N)c2ccccc2)[C@H]1O,FP633,>100 µg/mL
O[C@](Cn1cncn1)(Cn1cnc(/C=C/c2ccc(OCC(F)(F)C(F)F)cc2)n1)c1ccc(F)cc1F,Isolate 03-99,0.03 µg/mL
O/N=C(\c1ccc(Cl)cc1)c1oc2ccc(Cl)cc2c1Cn1ccnc1,NRRL Y-27077,12.5 µg/mL
c1ccc(C(Cn2ccnc2)OCc2cccc3ccccc23)cc1,3M,128 µg/mL
Nc1ncnc2c1ncn2[C@@H]1O[C@H](C(=O)O)[C@@H](NC(=O)[C@H](N)CSCC(=O)O)[C@H]1O,FP633,>100 µg/mL
Cc1c(O)cccc1C(=O)N[C@@H](CSc1ccccc1)[C@H](O)CN1C[C@H]2CCCC[C@H]2C[C@H]1C(=O)NC(C)(C)C,I52,>64 µg/mL
Fc1ccc(/C(Cn2ccnc2)=N/OCc2ccccc2)cc1,5M,128 µg/mL
C[C@@H](n1cnc2cc(NC(=O)C(F)(F)F)c(F)cc2c1=O)[C@](O)(Cn1cncn1)c1ccc(F)cc1F,76 strains,5 µg/mL
C[C@H]1[C@H](O)[C@@H](C)/C=C/C=C/C=C/C=C/C=C/C=C/C=C/[C@H](O[C@@H]2O[C@H](C)[C@@H](O)[C@H](N)[C@@H]2O)C[C@@H]2O[C@](O)(C[C@@H](O)C[C@@H](O)CC[C@H](O)[C@@H](O)C[C@@H](O)CC(=O)O[C@H]1C)C[C@H](O)[C@H]2C(=O)O,ATCC 10261,0.25 µg/mL
N=C(N)c1ccc2nc(-c3ccc(-c4nc5ccc(C(=N)N)cc5[nH]4)[nH]3)[nH]c2c1,Isolate 2281,0.78 µg/mL
Nc1nc(CC(N)C(=O)N[C@H]2[C@@H](O)[C@H](n3cnc4c(N)ncnc43)O[C@@H]2C(=O)O)ns1,FP633,50 µg/mL
C[C@H]1[C@H](O)[C@@H](C)/C=C/C=C/C=C/C=C/C=C/C=C/C=C/[C@H](O[C@@H]2O[C@H](C)[C@@H](O)[C@H](N)[C@@H]2O)C[C@@H]2O[C@](O)(C[C@@H](O)C[C@@H](O)CC[C@H](O)[C@@H](O)C[C@@H](O)CC(=O)O[C@H]1C)C[C@H](O)[C@H]2C(=O)O,ATCC64547,1 µg/mL
Nc1ncnc2c1ncn2[C@@H]1O[C@H](C(=O)O)[C@@H](NC(=O)[C@H](N)CSSc2ccccc2)[C@H]1O,FP633,25 µg/mL
Cc1c(C(=O)c2ccccc2)oc2ccc(Cl)cc12,NRRL Y-27077,25 µg/mL
C[C@@H](n1cnc2cc(N)c(F)cc2c1=O)[C@](O)(Cn1cncn1)c1ccc(F)cc1F,406 strains,5 µg/mL
O=C(c1ccccc1)c1oc2ccccc2c1Cn1cncn1,Clinical isolate,25 µg/mL
Cc1c(S(=O)(=O)c2ccccc2)[n+](=O)c2cc(Cl)ccc2n1[O-],Clinical isolate 2,15.6 µg/mL
CC(/C=C/C=C(\C)C(O)C(C)C(=O)O[C@H]1C[C@@H](C)C=C2C=C[C@]3(C)O[C@@H](O)CC(=O)[C@]3(C)[C@H]21)=C\C=C\C(=O)O,AC3413,0.78 µg/mL

6 of the rows above, restated:

structure,strain or isolate,result
O=C(c1ccccc1)c1oc2ccccc2c1Cn1cncn1,Clinical isolate,25 µg/mL
Cc1ccc(C(Cn2ccnc2)OCc2cccc3ccccc23)cc1,CA12,>128 µg/mL
C[C@@H](N1CNc2cc(Cl)ccc2C1=O)[C@](O)(Cn1cncn1)c1ccc(F)cc1F,406 strains,≤0.03 µg/mL
Nc1ncnc2c1ncn2[C@@H]1O[C@H](C(=O)O)[C@@H](NC(=O)C(N)Cc2ccncc2)[C@H]1O,FP633,12.5 µg/mL
C[C@@H](n1cnc2cc(N)c(F)cc2c1=O)[C@](O)(Cn1cncn1)c1ccc(F)cc1F,406 strains,5 µg/mL
C[C@@H](NC(=O)c1ccc(Cl)cc1N)[C@](O)(Cn1cncn1)c1ccc(F)cc1F,76 strains,>80 µg/mL